{"source": "patent US20040234531A1", "about": "“Chimeric human leukocyte antigen and epitope-bearing molecules having immunosuppressant activity” (priority 2001, published 2004)", "molecular_target": "14.3d TCR-HA", "data": [{"substance": "mDEF (soluble, bivalent MHC class II peptide chimera I-E^d/HA110-120/Fcγ2a) (peptide-MHC)", "values": [{"measurement": "% Fcγ2a+6.5+ T cells in the spleen", "result": "< 0.2", "unit": "%"}]}]}
